The values below come from the supplement of paper PMC9931576.

Human monoclonal antibodies against the spike receptor-binding domain (heavy:light variable regions). IC50 against pseudoviruses bearing the spike of naturally observed variants; lower = stronger; >10 µg/ml means not reached at the top dose. No active / inactive call. The stated detection limit is 0.0005 µg/ml; values near or below 0.001 µg/ml lie at the floor of the assay. Where only a bound is given, the exact number is not on record here.

The labels stand for the following.
B1: BD55-6313 (protein)
chain 1: QVTLKESGPVLVKPTETLTLTCTVSGFSLSNTRVGVSWIRQTPGKALEWLAHIFSNDAESYSTSLRNRLTVSKDPSKSQAVLIMTDMDPVDTATYYCARQTYDHSSGWYEDYWGQGALVTVSS
chain 2: DIQMTQSPSSLSASVGDRVTITCRASQSISTYLNWYQQKSGKAPTLLIHAASSLQSGVPSRFSASGSGTDFTLTISSLQPEDFATYYCHQSYSTPPTFGQGTKLEIK
B2: BD55-6320 (protein)
chain 1: QVQLEESGPGLVKPSQILSLTCSVSGNSISSVSYCWNWIRQPAGKGLEWIGHMCGSGNTDSNPSLKSRVSISVDTSKNQFSLKMSSVTAADTAVFYCARSTGDYEFDYWGQGTLVTVSS
chain 2: DIQMTQSPPTLSASVGDRVTITCRASQSIGRWLAWYQQKPGRAPKLLIYKASILETGVPSRFGGSGSGTEFTLSFNSLQPDDFATYYCQQYNDYPPTFGGGTKVEIK
B3: BD55-6303 (protein)
chain 1: EVQLVQSGAEVKKPGESLKISCKGSGFRFTNYWIGWVRQMPGKGLEWMGIIYPDDSDTRYSPSFQGQVTISADKSISVAYLQWSSLKASDTAIYYCARPICGGDCLPVYWGQGTLVTVSS
chain 2: DIQMTQSPSTLSASVGDRVTITCRASQSITGWLAWYQQKPGKAPKLLIQKASSLESGVPSRFSGSGSGTEFTLTISSLQPEDFATYYCQQYNSHPWTFGQGTKVEIK
B4: BD55-6330 (protein)
chain 1: QLQLAQSGAEVKKPGASVKVSCKASGDTFTGYYIHWVRQAPGQGLEWMGWINPNSGGTSYAHKFQGRVTMTRDTSISTAYMELSGLRSDDTAVYYCAREIPMITDPQVAFDIWGQGTMVTVSS
chain 2: DIQMTQSPSSLSASVGDRVTITCRASQSISTYLNWYQQKPGKAPKLLIYAASTLQSGVPSRFSGGGSGTDFSLTISSLQPEDFATYYCQQSYSFSYTFGQGTKLEIK
B5: BD55-6318 (protein)
chain 1: QVQLVESGGGVVQPGRPLRLSCVASGFTFSSHDMHWVRQAPGKGLEWVALISKDGGGKFYADSVKGRTTISRDNSKNTLYLQMNGLRGEDTAVYYCARDILSSTSPGTVFDKWGQGTLVTVSS
chain 2: EILMTQSPVTLSVSPGERATLSCRASQSVGSSLAWYQQKPGQAPRLLIYGASTRATDIPARFSGSGSGTDFTLTISSLQSEDFAVYYCQQYYTWPPDTFGQGTKLEIK
B6: BD55-6297 (protein)
chain 1: QITLKESGPTLVKPTQTLTLTCTFVGFSLSTSGVGVGWIRQPPGKALEWLALIYWNDDKYYSPSLKSRLTITKDTSENQVVLTMTNVDPVDTATYFCAHTMLFVYGDFDHWGQGTLVTVSS
chain 2: QSALTQPASVSGSPGQSITISCTGVSSDVDDYTYVSWYQQHPGKAPKLMIYDVSNRPSGVSDRFSGSKSGNTASLTISGLQAEDEAEYYCSSYTSTTTSRVFGGGTKLTVL
B7: BD55-6298 (protein)
chain 1: EVQLVESGGGLVQPGGSLRLSCAASGFTFSSYDMHWVRQSTGKGLEWVSVIGTTGDTYYPDSVKGRFTISRENAKNSLYLQMNSLRAGDTAVYYCVRVGYSYGLRYWYLDLWGRGTLVTVSS
chain 2: DIQMTQSPSSLSASVGDRVTITCRASQTVSRYLNWYQQKPGKPPQLLIYAASSLQSGVPSRFSGSGSGTDFTLTISSLQPEDYATYYCQQSYTSPMYTFGQGTKLEIK
B8: BD55-6316 (protein)
chain 1: QVQLVQSGAEVKKPGASVKVSCKASGYTFTSYYIHWVRQAPGQGLEWMGIINPDGGSTTYAQKFQGRFTMTRDTSTSTVYMELYSLRSEDTALYYCARDWGLVPASMYYFDYWGQGTLVTVSS
chain 2: EIVLTQSPATLSLSPGERATLSCRASQSVSSYLAWYQQKPGQAPRLLIYDASNRATGIPARFSGSGSGTDFTLTISSLEPEDFAVYYCQQRGNWPRTFGQGTKVEI
B9: BD55-6325 (protein)
chain 1: QVQLVQSGAEVKKPGASVKVSCKASGYTFTSYYIHWLRQAPGQGLEWMGIINPDGGSTTYAQKFQGRVTLTSDTSTSTVFMELSSLRSEDTAVYYCARDWGLVPASMYYFDFWGQGTLVTVSS
chain 2: EIVLTQSPATLSLSPGERATLSCRASQSVSSYLAWYQQKPGQAPRLLIYDASNRATGIPARFSGSGSGTDFTLTISSLEPEDFAVYYCQQRGNWPRTFGQGTKVEI
B10: BD55-6315 (protein)
chain 1: EVQLVESGGGLVHPGGSLRLSCAASGFNFVNFEMDWVRQAPGKGLEWISHIRSSDSTTFYADSVKGRFTISRDNARNSLYLQMSSLRAEDTAVYYCARSQLYYSDSNGYGNYYYYYGMDVWGQGTTVTVSS
chain 2: DIQMTQSPSSLSASVGDRVTITCRASQSISTYLNWYQQKPGKAPKLLIYAASSLQSGVPSTFSGSGSGTDFTLTISSLQPEDFATYYCQQSYTTPQAWTFGQGTKVELK
B11: BD55-6333 (protein)
chain 1: QVQLVQSGAEVKKPGASVKVSCKASGYTFTNYEINWVRQATGQGLEWMGWMNPDSGITAYAPKFQGRVTMTTNTPISTAYMELSSLTSEDTAVYYCAREKTGEGMLKYYYYDMDVWGQGTTVIVSS
chain 2: DIQMTQSPSALSASVGDGVTITCRASQNINTNLNWYRQKPGKAPELLIYAASSLQSGVPSRFSGSGSGTDFTLTISSLQPEDFASYYCQQSYTTPTTFGQGTKVEIK
B12: BD55-6340 (protein)
chain 1: QVTLKESGPVLVKPTETLTLTCTVSGFSLSNPRMGVSWIRQSPGRALEWLAHIFSTVETSYNPSLKSRLTVSKDTSKSHVVLTMTTVDPVDTATYYCAREPGGPWGSSAFDIWGQGTVVTVSS
chain 2: QSALTQPASVSGSPGQSITISCTGTSSDVGNYNLVSWYQQHPGKAPKLIIYEVSERPSGVSDRFSGSKSGNTASLTISGLQAEDEADYHCCSYAGDSTVIFGGGTKLTVL

For one experiment, the target named is SARS-CoV-2 Omicron BA.1 spike pseudovirus. The experiment in a line: pseudovirus neutralization IC50; higher = weaker neutralization. How it is done:
(§1)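 Single-round VSV luciferase pseudovirus mixed with antibody dilutions for 1 h and put on Huh-7 cells for about a day; IC50 from the dose curve.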
As to B1, the “pseudovirus neutralization IC50” value is over 10 µg/mL.
On the same count and under the same terms, the result for B2 reads over 10 µg/mL.
With B3, the “pseudovirus neutralization IC50” value was over 10 µg/mL.
B4: the “pseudovirus neutralization IC50” value is over 10 µg/mL.
The same measure, in the same setting: the value for B5 was over 10 µg/mL.
Consider B6, for which the “pseudovirus neutralization IC50” value was over 10 µg/mL.
With B7, the “pseudovirus neutralization IC50” value is over 10 µg/mL.
The same measure, in the same setting: the value for B8 was over 10 µg/mL; that for B9 was 4.14 µg/mL.
On to B10, for which the “pseudovirus neutralization IC50” value was over 10 µg/mL.
In the case of B11, the “pseudovirus neutralization IC50” value was over 10 µg/mL.
Take B12: the “pseudovirus neutralization IC50” value is over 10 µg/mL.

The next experiment has as its target SARS-CoV-2 Omicron BA.2 spike pseudovirus. The description is as above. How it is done:
as §1
For the molecule B1, the “pseudovirus neutralization IC50” value was over 10 µg/mL.
Take B2: the “pseudovirus neutralization IC50” value was over 10 µg/mL.
As for B3, the “pseudovirus neutralization IC50” value was over 10 µg/mL.
In the case of B4, the “pseudovirus neutralization IC50” value is over 10 µg/mL.
On to B5, for which the “pseudovirus neutralization IC50” value was over 10 µg/mL.
With B6, the “pseudovirus neutralization IC50” value is over 10 µg/mL.
The same measure, in the same setting: the result for B7 reads over 10 µg/mL; that for B8, over 10 µg/mL; that for B9, 3.74 µg/mL.
On to B10, for which the “pseudovirus neutralization IC50” value is over 10 µg/mL.
B11: the “pseudovirus neutralization IC50” value is over 10 µg/mL.
On the same count and under the same terms, the result for B12 reads over 10 µg/mL.

The target in a further experiment is SARS-CoV-2 Omicron BA.2.75 spike pseudovirus. Described as above. How it is done:
as §1
For B1, the “pseudovirus neutralization IC50” value was over 10 µg/mL.
On the same count and under the same terms, the result for B2 reads over 10 µg/mL; that for B3, over 10 µg/mL.
On to B4, for which the “pseudovirus neutralization IC50” value was over 10 µg/mL.
B5: the “pseudovirus neutralization IC50” value is over 10 µg/mL.
As for B6, the “pseudovirus neutralization IC50” value is over 10 µg/mL.
On to B7, for which the “pseudovirus neutralization IC50” value is over 10 µg/mL.
As to B8, the “pseudovirus neutralization IC50” value is over 10 µg/mL.
For the molecule B9, the “pseudovirus neutralization IC50” value worked out at 3.67 µg/mL.
B10: the “pseudovirus neutralization IC50” value is over 10 µg/mL.
Same read-out and setting: the result for B11 reads over 10 µg/mL; that for B12, over 10 µg/mL.

Another experiment addresses SARS-CoV-2 Omicron BA.5 spike pseudovirus. The description is as above. As to the method:
as §1
For the molecule B1, the “pseudovirus neutralization IC50” value was over 10 µg/mL.
B2: the “pseudovirus neutralization IC50” value is over 10 µg/mL.
For B3, the “pseudovirus neutralization IC50” value is over 10 µg/mL.
Take B4: the “pseudovirus neutralization IC50” value is over 10 µg/mL.
Still for that read-out and setting: the result for B5 reads over 10 µg/mL; that for B6, over 10 µg/mL; that for B7, over 10 µg/mL.
For B8, the “pseudovirus neutralization IC50” value was over 10 µg/mL.
Turning to B9, the “pseudovirus neutralization IC50” value is 3.3 µg/mL.
For B10, the “pseudovirus neutralization IC50” value is over 10 µg/mL.
As to B11, the “pseudovirus neutralization IC50” value is over 10 µg/mL.
Take B12: the “pseudovirus neutralization IC50” value was over 10 µg/mL.

A further experiment deals with SARS-CoV-2 Omicron BQ.1.1 spike pseudovirus. The description is as above. How it is done:
as §1
Take B1: the “pseudovirus neutralization IC50” value is over 10 µg/mL.
On the same count and under the same terms, the result for B2 reads over 10 µg/mL; that for B3, over 10 µg/mL; that for B4, over 10 µg/mL.
B5: the “pseudovirus neutralization IC50” value was over 10 µg/mL.
On to B6, for which the “pseudovirus neutralization IC50” value was over 10 µg/mL.
Regarding B7, the “pseudovirus neutralization IC50” value was over 10 µg/mL.
For the molecule B8, the “pseudovirus neutralization IC50” value was over 10 µg/mL.
In the case of B9, the “pseudovirus neutralization IC50” value was over 10 µg/mL.
The same measure, in the same setting: the value for B10 was over 10 µg/mL.
On to B11, for which the “pseudovirus neutralization IC50” value is over 10 µg/mL.
The same measure, in the same setting: the result for B12 reads over 10 µg/mL.

A further experiment has as its target SARS-CoV-2 Omicron XBB spike pseudovirus. The description is as above. As to the method:
as §1
For B1, the “pseudovirus neutralization IC50” value was over 10 µg/mL.
In the case of B2, the “pseudovirus neutralization IC50” value is over 10 µg/mL.
In the case of B3, the “pseudovirus neutralization IC50” value is over 10 µg/mL.
On to B4, for which the “pseudovirus neutralization IC50” value was over 10 µg/mL.
Take B5: the “pseudovirus neutralization IC50” value was over 10 µg/mL.
In the case of B6, the “pseudovirus neutralization IC50” value was over 10 µg/mL.
As for B7, the “pseudovirus neutralization IC50” value was over 10 µg/mL.
Turning to B8, the “pseudovirus neutralization IC50” value is over 10 µg/mL.
B9: the “pseudovirus neutralization IC50” value was over 10 µg/mL.
Turning to B10, the “pseudovirus neutralization IC50” value is over 10 µg/mL.
The same measure, in the same setting: the result for B11 reads over 10 µg/mL; that for B12, over 10 µg/mL.

The next experiment has as its target SARS-CoV-2 early D614G spike pseudovirus. The experiment is described as above. How it is done:
as §1
As for B1, the “pseudovirus neutralization IC50” value is over 10 µg/mL.
B2: the “pseudovirus neutralization IC50” value was found to be 0.7 µg/mL.
For the molecule B3, the “pseudovirus neutralization IC50” value is over 10 µg/mL.
On to B4, for which the “pseudovirus neutralization IC50” value turned out to be 4.45 µg/mL.
Same read-out and setting: the result for B5 reads 2.52 µg/mL; that for B6, over 10 µg/mL.
With B7, the “pseudovirus neutralization IC50” value was over 10 µg/mL.
Still for that read-out and setting: the result for B8 reads over 10 µg/mL; that for B9, 3.87 µg/mL; that for B10, over 10 µg/mL.
On the same count and under the same terms, the result for B11 reads over 10 µg/mL.
On to B12, for which the “pseudovirus neutralization IC50” value is 0.222 µg/mL.
